Test results published in ChEMBL document CHEMBL4823308, “Optimization of Triarylpyridinone Inhibitors of the Main Protease of SARS-CoV-2 to Low-Nanomolar Antiviral Potency” (ACS Med Chem Lett, 2021).

Tested on: SARS-CoV-2
Assay: microbe, parasite or virus in culture
Details: Severe acute respiratory syndrome coronavirus 2, 16HBE14o-, 24 h

Structure (SMILES): Cn1cc(-c2cc(-c3cc(Cl)cc(OCc4scnc4C(F)(F)F)c3)c(=O)n(-c3cccnc3)c2)c(=O)[nH]c1=O
- EC50: 1080 nM

Structure (SMILES): Cn1cc(-c2cc(-c3cc(Cl)cc(OCCC(F)(F)F)c3)c(=O)n(-c3cccnc3)c2)c(=O)[nH]c1=O
- EC50: 820 nM
